Experiments:
conscious sheep [1] = assay: Tracheal mucus velocity (TMV) in conscious sheep; settings: versus PbTx-3 (20 breaths of 10 pg/mL)
conscious sheep [2] = assay: Pulmonary airflow resistance (RL) / brevetoxin-induced bronchoconstriction in conscious sheep; settings: for effect on PbTx-3-induced bronchoconstriction: FIG. 5, 15 minutes prior to PbTx-3 challenge

For β-Naphthoyl-PbTx-3, the “TMV relative to PbTx-3” value (conscious sheep [1]; FIG. 3, 10 pg dose (n=2)) was “increased TMV relative to PbTx-3”, the “TMV relative to PbTx-3” value (conscious sheep [1]; FIG. 3, 100 pg dose (n=4)) was “increased TMV relative to PbTx-3” and the “effect on PbTx-2-induced bronchoconstriction” value (conscious sheep [2]; FIG. 4, pretreatment with 20 breaths of 10 pg/mL, 15 minutes prior to PbTx-2 challenge) was “blocked PbTx-2-induced bronchoconstriction”. The “effect on PbTx-3-induced bronchoconstriction” value (conscious sheep [2]; pretreatment with 20 breaths of 10 pg/mL) was “blocked PbTx-3-induced constrictor response” and the “effect on PbTx-3-induced bronchoconstriction” value (conscious sheep [2]; pretreatment with 20 breaths of 100 pg/mL) was “increase the inhibition of PbTx-3-induced bronchoconstriction”.

From patent US7399782B2, “Polyether brevetoxin derivatives as a treatment for cystic fibrosis, mucociliary dysfunction, and pulmonary diseases” (dated 2008)
